Measured values from several laboratories, pooled; numbers as filed in NIAID ChemDB.

Shared fields: growth or infection tests; agent: Mycobacterium avium complex

Blank or dashed fields: not listed here.

smiles,tested at,method,endpoint,strain or isolate,cell line,result
NNC(=O)c1ccncc1,,,MIC,N-976 (HIV+),,64 µg/mL
Cc1ccn2c(C(=O)NCc3ccc4c(c3)CCO4)c(C)nc2c1,,MTT,MIC,Clinical isolate LPR,,>32 µg/mL
CC[C@H]1OC(=O)[C@H](C)[C@@H](OC(=O)Cc2ccccn2)[C@H](C)[C@@H](O[C@@H]2O[C@H](C)C[C@H](N(C)C)[C@H]2O)C(C)(O)C[C@@H](C)/C(=N\OCCCOc2ccccc2)[C@H](C)[C@@H](O)[C@]1(C)O,,,MIC,20096 (clarithromycin-resistant),,12.5 µg/mL
CO[C@H]1/C=C/O[C@@]2(C)Oc3c(C)c(O)c4c(O)c(c5c(c4c3C2=O)NC2(CCN(CC(C)C)CC2)N=5)=NC(=O)/C(C)=C\C=C\[C@H](C)[C@H](O)[C@@H](C)[C@@H](O)[C@@H](C)[C@H](OC(C)=O)[C@@H]1C,,,MBC,3009-4,,32 µg/mL
CCCN(CCC)CC[C@H]1C[C@@H](C)C(=O)/C=C/C(C)=C/[C@H](COC2O[C@H](C)[C@@H](O)[C@@H](OC)[C@H]2OC)[C@@H](CC)OC(=O)C[C@@H](O)[C@H](C)[C@H]1O[C@@H]1O[C@H](C)[C@H](O)[C@H](N(C)C)[C@H]1O,,,MIC90,28 strains,,≥64 µg/mL
CC[C@H]1OC(=O)[C@H](C)[C@@H](O[C@H]2C[C@@](C)(OC)[C@@H](O)[C@H](C)O2)[C@H](C)[C@@H](O[C@@H]2O[C@H](C)C[C@H](N(C)C)[C@H]2O)[C@](C)(OC)C[C@@H](C)C(=O)[C@H](C)[C@@H](O)[C@]1(C)O,,,Median MIC,20 isolates,,≤2 µg/mL
Nc1ccc(S(=O)(=O)c2ccc(N)cc2)cc1,,,MIC,DW5,,64 µg/mL
C[C@@H]1CN(c2c(F)c(N)c3c(=O)c(C(=O)O)cn(C4CC4)c3c2F)C[C@H](C)N1,,,MIC90,,,6.25 µg/mL
N[C@@H]1CN(c2c(F)cc3c(=O)c(C(=O)O)cn([C@@H]4C[C@@H]4F)c3c2Cl)CC12CC2,,,EC50,100,Macrophages,<10 µg/mL
CC(=O)NC[C@H]1CN(c2ccc(N3CCN(Cc4ccc([N+](=O)[O-])s4)CC3)c(F)c2)C(=O)O1,,,Geometric mean MIC,31 isolates,,0.217 µg/mL
CO[C@H]1/C=C/O[C@@]2(C)Oc3c(C)c(O)c4c(O)c(c5c(c4c3C2=O)NC2(CCN(CC(C)C)CC2)N=5)=NC(=O)/C(C)=C\C=C\[C@H](C)[C@H](O)[C@@H](C)[C@@H](O)[C@@H](C)[C@H](OC(C)=O)[C@@H]1C,,,MIC,N-980 (HIV+),,0.4 µg/mL
CC[C@H]1OC(=O)[C@H](C)[C@@H](O[C@H]2C[C@@](C)(OC)[C@@H](OC(C)=O)[C@H](C)O2)[C@H](C)[C@@H](O[C@@H]2O[C@H](C)C[C@H](N(C)C)[C@H]2OC(=O)NN2CCCC2)C(C)(O)C[C@@H](C)/C(=N\OCCCC2CCCCC2)[C@H](C)[C@@H](O)[C@]1(C)O,,,MIC,20039 (clarithromycin-susceptible),,3.13 µg/mL
CC[C@H]1OC(=O)[C@H](C)[C@@H](O[C@H]2C[C@@](C)(OC)[C@@H](O)[C@H](C)O2)[C@H](C)[C@@H](O[C@@H]2O[C@H](C)C[C@H](N(C)C)[C@H]2O)[C@](C)(OC)C[C@@H](C)C(=O)[C@H](C)[C@@H](O)[C@]1(C)O,,,MBC,N-444,,32 µg/mL
NC(=O)c1cnccn1,100 µg/mL,,inhibition,33 strains (pyrazinamidase-positive),,0%
CO[C@H]1/C=C/O[C@@]2(C)Oc3c(C)c(O)c4c(O)c(c(N5CCN(Cc6c(C)cc(C)cc6C)CC5)c(O)c4c3C2=O)NC(=O)/C(C)=C\C=C\[C@H](C)[C@H](O)[C@@H](C)[C@@H](O)[C@@H](C)[C@H](OC(C)=O)[C@@H]1C,,,Mean MIC,67 strains (HIV+),,0.33 µg/mL
NC[C@H]1O[C@H](O[C@H]2[C@H](O)[C@@H](O[C@H]3O[C@H](CO)[C@@H](O)[C@H](N)[C@H]3O)[C@H](N)C[C@@H]2N)[C@H](O)[C@@H](O)[C@@H]1O,,,MBC90,25 isolates,,>64 µg/mL
C[C@@H]1CN(c2c(F)c(N)c3c(=O)c(C(=O)O)cn(C4CC4)c3c2F)C[C@H](C)N1,,,MIC,N-289 (HIV-),,0.25 µg/mL
Cc1ccc2nc(C)c(C(=O)NCc3ccc(C(F)(F)F)cc3)n2c1,,MTT,MIC,Clinical isolate 224,,0.06 µg/mL
CO[C@H]1/C=C/O[C@@]2(C)Oc3c(C)c(O)c4c(=O)c(c5oc6cc(N7CCN(CC(C)C)CC7)cc(=O)c6nc5c4c3=C2O)NC(=O)/C(C)=C\C=C\[C@H](C)[C@H](O)[C@@H](C)[C@@H](O)[C@@H](C)[C@H](OC(C)=O)[C@@H]1C,,,MBC,N-444,,1 µg/mL
CC[C@H]1OC(=O)[C@H](C)[C@@H](OC2C[C@@](C)(OC)[C@@H](O)[C@H](C)O2)[C@H](C)[C@@H](O[C@@H]2O[C@H](C)C[C@H](N(C)C)[C@H]2O)C(C)(O)C[C@@H](C)/C(=N\OCCCC2CCCCC2)[C@H](C)[C@@H](O)[C@]1(C)O,,,MIC,20096 (clarithromycin-resistant),,6.25 µg/mL
COc1ccc(NC(=O)c2ccc3cc(O)ccc3c2)cc1,,broth dilution,MIC,Clinical isolate CIT19/06 (MAC),,102 µM
CC[C@H]1OC(=O)C[C@@H](O)[C@H](C)[C@@H](O[C@@H]2O[C@H](C)[C@H](O[C@H]3C[C@@](C)(O)[C@@H](O)[C@H](C)O3)[C@H](N(C)C)[C@H]2O)[C@@H](CC=O)C[C@@H](C)C(=O)/C=C/C(C)=C/[C@@H]1CO,,,MIC90,28 strains,,32 µg/mL
NCC[C@H](O)C(=O)N[C@@H]1C[C@H](N)[C@@H](O[C@H]2O[C@H](CN)[C@@H](O)[C@H](O)[C@H]2O)[C@H](O)[C@H]1O[C@H]1O[C@H](CO)[C@@H](O)[C@H](N)[C@H]1O,,,MBC90,25 isolates,,64 µg/mL
CC[C@H]1OC(=O)[C@H](C)[C@@H](O[C@H]2C[C@@](C)(OC)[C@@H](O)[C@H](C)O2)[C@H](C)[C@@H](O[C@@H]2O[C@H](C)C[C@H](N(C)C)[C@H]2O)[C@](C)(O)C[C@@H](C)/C(=N\OCOCCOC)[C@H](C)[C@@H](O)[C@]1(C)O,,,MIC90,28 strains,,16 µg/mL
CC[C@H]1OC(=O)[C@H](C)[C@@H](O[C@H]2C[C@@](C)(OC)[C@@H](O)[C@H](C)O2)[C@H](C)[C@@H](O[C@@H]2O[C@H](C)C[C@H](N(C)C)[C@H]2O)[C@](C)(OC)C[C@@H](C)C(=O)[C@H](C)[C@@H](O)[C@]1(C)O,,,MIC90,20 strains,,16 µg/mL
CC[C@H]1OC(=O)C[C@@H](O)[C@H](C)[C@@H](O[C@@H]2O[C@H](C)[C@H](O)[C@H](N(C)C)[C@H]2O)[C@@H](CCOc2ccccc2)C[C@@H](C)C(=O)/C=C/C(C)=C/[C@@H]1COC1O[C@H](C)[C@@H](O)[C@@H](OC)[C@H]1OC,,,MIC90,28 strains,,≥64 µg/mL
OC[C@H]1OC(O)C[C@@H](O)[C@@H]1O,1000 µg/mL,,inhibition,Serovar 4,,5%
CC[C@H]1OC(=O)[C@H](C)[C@@H](OC2C[C@@](C)(OC)[C@@H](OC(=O)CCCCc3ccccc3)[C@H](C)O2)[C@H](C)[C@@H](O[C@@H]2O[C@H](C)C[C@H](N(C)C)[C@H]2O)C(C)(O)C[C@@H](C)/C(=N\OCCCOc2ccccc2)[C@H](C)[C@@H](O)[C@]1(C)O,,,MIC,20092 (clarithromycin-resistant),,6.25 µg/mL
COc1c(N2CCNC(C)C2)c(F)cc2c(=O)c(C(=O)O)cn(C3CC3)c12,,,MIC50,18 strains,,1.56 µg/mL
CCCCCCCCCCCCCCO/N=C1\[C@H](C)CC(C)(O)[C@H](O[C@@H]2O[C@H](C)C[C@H](N(C)C)[C@H]2O)[C@@H](C)[C@H](OC2C[C@@](C)(OC)[C@@H](O)[C@H](C)O2)[C@@H](C)C(=O)O[C@H](CC)[C@@](C)(O)[C@H](O)[C@H]1C,,,MIC,20039 (clarithromycin-susceptible),,50 µg/mL
CCc1cc(C(N)=S)ccn1,,broth dilution,EC50,56 strains,,<5 µg/mL
CC1(C)N=C(N)N=C(N)N1OCCCOc1cc(Cl)c(Cl)cc1Cl,,,MIC,DW23,,2 µg/mL
CC1COc2c(N3CCN(C)CC3)c(F)cc3c(=O)c(C(=O)O)cn1c23,,,MIC50,18 strains,,12.5 µg/mL
CCN=c1cc2n(-c3ccc(Cl)cc3)c3ccccc3nc-2cc1Nc1ccc(Cl)cc1,,,MBC,211,,64 µg/mL

A second listing of 3 rows from above:

smiles	tested at	method	endpoint	strain or isolate	cell line	result
COc1c(N2CCNC(C)C2)c(F)cc2c(=O)c(C(=O)O)cn(C3CC3)c12			MIC50	18 strains		1.56 µg/mL
CC1(C)N=C(N)N=C(N)N1OCCCOc1cc(Cl)c(Cl)cc1Cl			MIC	DW23		2 µg/mL
CCCCCCCCCCCCCCO/N=C1\[C@H](C)CC(C)(O)[C@H](O[C@@H]2O[C@H](C)C[C@H](N(C)C)[C@H]2O)[C@@H](C)[C@H](OC2C[C@@](C)(OC)[C@@H](O)[C@H](C)O2)[C@@H](C)C(=O)O[C@H](CC)[C@@](C)(O)[C@H](O)[C@H]1C			MIC	20039 (clarithromycin-susceptible)		50 µg/mL

MIC50, MIC90 and the like: level of inhibition, or share of isolates inhibited. ECn is the concentration giving n% inhibition of infection, replication or growth. Lines come from different laboratories, so protocols vary. Inhibition is in % at the dose shown (toxicity tests: loss of growth or viability).